For experiment [1], the target named is bovine serum albumin, bovine, P02769 25-607. The experiment is described as follows: SPR, BSA immobilized, pentabody at 10 nM. (SPR reads the build-up and loss of mass on a sensor chip optically.)
Experiment [2] has the same target. The experiment in a line: SPR, BSA immobilized, multivalent binding.

Some results are limits rather than exact numbers.

Experimental findings from patent US20110318348 are described below.

As to CTB-based pentabody C3C-BSA8, in experiment [1], the binding capacity (RU) turned out to be 45 ru.

Substance CTB-based pentabody C3C-BSA12 gave a koff in experiment [2] of less than 1e-05 s⁻¹. The substance further came in with a binding capacity (RU) in experiment [1] of 700 ru.

CTB-based pentabody C3C-BSA16 registered a binding capacity (RU) in experiment [1] of 700 ru.

What is called koff is the rate constant with which the complex falls apart. The low end stands for a long-lived complex, the high end for a short-lived complex.
